Data source: PubChem BioAssay AID1224833 (University of Georgia, 2016)

Screen: 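Host factors restraining rotavirus as candidate antiviral genes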 (primary screen)
Cells: monkey MA104 kidney cells
Reagents: siRNA pool against human genes, 50 nM
Time to read-out: 48 h knock-down before infection; read 24 h after infection
Conditions: infection with rotavirus strain RV3 two days after transfection; infectious dose for this stage not given
Read-out: 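Rotavirus antigen per well by fluorescent immunoassay, normalised to non-targeting control wells on each plate and given as a standard z-score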
Direction: z-score vs non-targeting control: higher = more rotavirus replication than with non-targeting control
Call rule: In these data the active calls have z-score vs non-targeting control at about -1 or lower, or at about 1 or higher
Meaning of the calls: active = z-score beyond 1 either way; inactive = z-score within 1 of zero
The whole screen tested about 12,000 reagents; this is an unselected part. About 5,600 of all reagents (46%) count as active. 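Active calls cover z-scores past 1 in both directions, so they include lowered as well as raised rotavirus replication.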 Unmarked entries are inactive.

gene symbol,z-score vs non-targeting control
NPLOC4,-1.52 (active)
ANKFY1,-1.66 (active)
PLA2G3,0.58
MYH6,1.52 (active)
ZMYND15,-0.591
NR1D1,0.791
NMUR1,-1.36 (active)
EIF3H,-1.66 (active)
ESRP2,0.249
PHLDA2,0.404
HAMP,0.795
RUNX2,1.44 (active)
N4BP2L2,-0.0057
S100A14,1.56 (active)
CYYR1,-0.819
MPV17L2,0.444
DMWD,0.175
ZNF385B,0.49
LRP5L,-1.13 (active)
LDLR,-1.79 (active)
USP1,0.851
DMD,-0.419
GDAP1,-1.19 (active)
TMEM25,-0.812
GOT1,-1.15 (active)
GHSR,-1.8 (active)
KLHL1,0.0642
FAM91A1,0.512
SLC6A3,-1.59 (active)
ZNF432,-1.32 (active)
NOSTRIN,-0.0887
SLC6A11,-2.3 (active)
DNAJC7,-1.66 (active)
ARAP2,-0.678
MIA,0.395
ITPRIPL2,-0.891
HSPA14,-2.03 (active)
ISG20,-1.53 (active)
LRIG2,0.741
MRPL24,0.602
ANTXR2,-0.75
EQTN,-1.56 (active)
MAGEA5P,-1.69 (active)
ALLC,-0.648
BMP4,0.541
NLRP10,-1.71 (active)
EXOC3,0.778
MYO19,-1.51 (active)
IL20RA,-0.579
CYSTM1,1.24 (active)
WDR44,-0.553
GAS8-AS1,0.398
KRTAP4-1,-1.26 (active)
CFAP298,-1.5 (active)
GMPS,-2.16 (active)
ADCY4,-0.774
EBPL,1.28 (active)
FTSJ1,-1.1 (active)
MBOAT7,0.591
PAQR4,1.39 (active)
FAF1,0.749
ADD3,-0.671
CLDN16,-2.03 (active)
ARHGEF18,-0.682
CPVL,2 (active)
FCRL3,1.09 (active)
STX7,-0.453
SLC17A5,0.643
RAB13,-1.15 (active)
TMIGD1,0.685
ARHGDIA,1.39 (active)
SLC25A21,-2.05 (active)
ZNF273,1.25 (active)
IFNA4,-0.161
EGR1,-1.64 (active)
NUDT16L1,1.87 (active)
LPAR3,-1.51 (active)
KLHL11,1.15 (active)
WDR53,1.53 (active)
ZNF7,-0.788
LRBA,-1.27 (active)
LIN54,1.49 (active)
IGSF8,-1.45 (active)
VAMP2,-1.39 (active)
DCAF11,-1.32 (active)
ZMYM2,0.549
RGL2,-0.825
STAM,-0.431
TUBB,1.38 (active)
KIAA0232,-0.473
RIMS4,-1.23 (active)
ACSM1,0.746
PRDM7,0.132
EIF2B3,-1.92 (active)
ALAD,1.4 (active)
BUD13,-0.471
OR2F2,-0.993
MAN2B1,0.616
LY9,0.716
MYBL2,-0.883
GMPPB,-1.77 (active)
GINS2,2.34 (active)
OR13C5,-0.706
CNN3,0.433
DEFB104B,0.26
GPATCH1,0.034
DAW1,-0.655
IRGQ,-0.826
PCBP1,-0.622
TAL2,1.12 (active)

Reformatted: 18 of the entries above.
gene symbol	z-score vs non-targeting control
GMPS	-2.16 (active)
ADCY4	-0.774
EBPL	1.28 (active)
FTSJ1	-1.1 (active)
MBOAT7	0.591
PAQR4	1.39 (active)
FAF1	0.749
ADD3	-0.671
CLDN16	-2.03 (active)
ARHGEF18	-0.682
CPVL	2 (active)
FCRL3	1.09 (active)
STX7	-0.453
SLC17A5	0.643
RAB13	-1.15 (active)
TMIGD1	0.685
ARHGDIA	1.39 (active)
SLC25A21	-2.05 (active)
